In PubChem BioAssay AID1706 (The Scripps Research Institute Molecular Screening Center, 2009):
Only a part is listed here, and it is no random draw. Active and inactive are the calls of the source. Cut-off read from the data, not from the text of the source: active = inhibition above about 12%; inactive = the rest.

Molecular target: Replicase polyprotein 1ab (Severe acute respiratory syndrome coronavirus) (UniProt P0C6X7)
Assay: SARS-CoV 3CLpro protease inhibitors, primary screen, biochemical, quenched FRET (AID 1706)
Conditions: recombinant SARS-CoV 3CLpro, quenched FRET peptide cleavage; at 6 µM; hits give high values

SMILES | inhibition
Nc1ccc([As](=O)(O)c2ccc(N)cc2)cc1 | inactive: 1.31%
CCN(/C(=N/P(=O)(N1CCOCC1)N1CCOCC1)N1CCOCC1)c1ccc(OC)cc1 | inactive: 2.99%
O=[N+]([O-])c1cccc2n[nH]nc12 | inactive: -0.91%
CC(=O)N1C2C3N(C(C)=O)C1C1N(C(C)=O)C(C(N1C(C)=O)N3C(C)=O)N2C(C)=O | inactive: -6.24%
CCc1nc2c(n1)c1c(non1O)c1c2no[n+]1[O-] | inactive: -4.49%
O=[N+]([O-])c1cc([N+](=O)[O-])c(CCNc2ccccc2)c([N+](=O)[O-])c1 | inactive: -1.56%
Cc1ccc(NP(=O)(Oc2ccccc2)Oc2ccccc2)nc1 | inactive: 4.61%
COc1ccc(C2=NCC(CBr)S2)cc1 (configuration not stated) | inactive: 5.27%
c1nnnn1CCn1cnnn1 | inactive: 0.79%
CC(C)C(=O)NC(Sc1ccccc1)C(Cl)(Cl)Cl (configuration not stated) | inactive: 7.38%
O=P(Nc1nccs1)(c1ccccc1)c1ccccc1 | inactive: 0.44%
Nc1ccc([As](=O)(O)c2ccc([N+](=O)[O-])cc2)cc1 | inactive: 6.26%
C(Cc1nn[nH]n1)Cc1nn[nH]n1 | inactive: -3.58%
O=C(OC1CN2CCC1CC2)c1cccc(Cl)c1 (configuration not stated) | inactive: 2.04%
O=[N+]([O-])c1ccc(O)c(/C=N/Nc2ccc([N+](=O)[O-])cc2[N+](=O)[O-])c1 | inactive: 7.75%
O=[N+]([O-])c1ncn(CCn2cnc([N+](=O)[O-])n2)n1 | inactive: 1.28%
CC(=O)NC(SC(=S)N(C)C)C(Cl)(Cl)Cl (configuration not stated) | inactive: 1.35%
O=[As](O)(c1ccccc1)c1ccc(O)cc1 | inactive: -3.44%
O=P(Nc1nc2ccccc2s1)(c1ccccc1)c1ccccc1 | inactive: 2.91%
O=P(Nc1ccccn1)(c1ccc(Br)cc1)c1ccc(Br)cc1 | inactive: -0.17%
CN(C)C1(CNC(=O)c2ccc(Cl)c(S(N)(=O)=O)c2)CCCCC1 | inactive: 2.57%
CN(C)C(=O)Oc1noc2ccccc12 | inactive: 4.95%
O=c1c2cc([N+](=O)[O-])ccc2[nH]c2c([N+](=O)[O-])cc([N+](=O)[O-])cc12 | inactive: 4.66%
Cc1ccccc1OP(=O)(Nc1ccccn1)Oc1ccccc1C | inactive: 1.23%
Cc1ccc(OP(=O)(Nc2ccccn2)Oc2ccc(C)cc2)cc1 | inactive: 3.31%
CC(=O)NC(SC(=S)N(CC(C)C)CC(C)C)C(Cl)(Cl)Cl (configuration not stated) | inactive: -2.06%
COC(=O)c1cc2c(s1)N=C(c1ccccc1)N(C)P2(=O)N1CCOCC1 (configuration not stated) | inactive: 0.58%
